Data published in paper PMC12836348, “Alanine Mutagenesis Identifies Specific Amino Acids of Nemertide Alpha‑1 Activity and Its Binding to Target Receptors” (Journal of Natural Products, 2025).

Experiments:
[1] = test system: BgNav1; test: Two-electrode voltage clamp, BgNav1 expressed in Xenopus laevis oocytes; assay type: cell-based, Blattella germanica
[2] = test system: Artemia salina; details: in vivo, nauplii dead or immobilized after 24 h in the dark, triplicates; highest tested concentration 60 μM
[3] = target: T1, hNav1.1 (Homo sapiens, UniProt P35498); test: Two-electrode voltage clamp, Nav1.1 in Xenopus laevis oocytes; assay type: cell-based; details: two-electrode voltage clamp in Xenopus laevis oocytes, Hill fit, n ≥ 3; highest tested concentration 50 μM
T1 construct: expressed in transfected cells; host or cells: Xenopus laevis oocytes (cRNA injection)

[4] = target: T2, rNaV1.3 (Rattus norvegicus, UniProt P08104); test: Two-electrode voltage clamp, Nav1.3 in Xenopus laevis oocytes; assay type: cell-based; details: for fold increase in EC50 on Nav1.3 relative to alpha-1: reduced activity; for fold reduction of EC50 on Nav1.3 relative to alpha-1: enhanced activity compared to alpha-1
T2 construct: expressed in transfected cells; host or cells: Xenopus laevis oocytes (cRNA injection)

[5] = target: T3, rNaV1.4 (Rattus norvegicus, UniProt P15390); test: Two-electrode voltage clamp, Nav1.4 in Xenopus laevis oocytes; assay type: cell-based; details: for fold reduction of EC50 on Nav1.4 relative to alpha-1: relative to alpha-1 184 ± 65.4 nM
T3 construct: expressed in transfected cells; host or cells: Xenopus laevis oocytes (cRNA injection)

[6] = target: T4, hNav1.7 (Homo sapiens, UniProt Q15858); test: Two-electrode voltage clamp, Nav1.7 in Xenopus laevis oocytes; assay type: cell-based; details: two-electrode voltage clamp in Xenopus laevis oocytes, Hill fit, n ≥ 3
T4 construct: expressed in transfected cells; host or cells: Xenopus laevis oocytes (cRNA injection)

CC[C@H](C)[C@@H]1NC(=O)[C@@H](NC(=O)CN)CSSC[C@@H]2NC(=O)[C@@H]3CSSC[C@@H](C(=O)N[C@@H](CC(N)=O)C(=O)N4C[C@H](O)C[C@H]4C(=O)N4C[C@H](O)C[C@H]4C(=O)N[C@@H](CC(N)=O)C(=O)N[C@@H](CCC(N)=O)C(=O)O)NC(=O)[C@H](CCCCN)NC(=O)[C@H](Cc4ccccc4)NC(=O)[C@H](CC(N)=O)NC(=O)[C@H](Cc4c[nH]c5ccccc45)NC(=O)CNC(=O)[C@H](CSSC[C@H](NC(=O)[C@H](CCCCN)NC(=O)[C@H](CO)NC(=O)CNC(=O)[C@H]([C@@H](C)O)NC(=O)[C@H](C)NC1=O)C(=O)N[C@@H]([C@@H](C)O)C(=O)N[C@@H](CC(C)C)C(=O)N[C@@H](CO)C(=O)N[C@@H](CCCCN)C(=O)NCC(=O)N3)NC(=O)[C@H](CC(N)=O)NC(=O)[C@H](CCCCN)NC(=O)[C@H]([C@@H](C)O)NC2=O [Peptide F8K]
fold increase in EC50 on BgNav1 relative to alpha-1 (times lower activity) [1]: 8.9 fold
EC50 Artemia [2]: inactive

CC[C@H](C)[C@@H]1NC(=O)[C@@H](NC(=O)CN)CSSC[C@@H]2NC(=O)[C@@H]3CSSC[C@@H](C(=O)N[C@@H](CC(N)=O)C(=O)N4C[C@H](O)C[C@H]4C(=O)N4C[C@H](O)C[C@H]4C(=O)N[C@@H](CC(N)=O)C(=O)N[C@@H](CCC(N)=O)C(=O)O)NC(=O)[C@H](CCCCN)NC(=O)[C@H](C)NC(=O)[C@H](CC(N)=O)NC(=O)[C@H](Cc4c[nH]c5ccccc45)NC(=O)CNC(=O)[C@H](CSSC[C@H](NC(=O)[C@H](Cc4ccccc4)NC(=O)[C@H](CO)NC(=O)CNC(=O)[C@H]([C@@H](C)O)NC(=O)[C@H](C)NC1=O)C(=O)N[C@@H]([C@@H](C)O)C(=O)N[C@@H](CC(C)C)C(=O)N[C@@H](CO)C(=O)N[C@@H](CCCCN)C(=O)NCC(=O)N3)NC(=O)[C@H](CC(N)=O)NC(=O)[C@H](CCCCN)NC(=O)[C@H]([C@@H](C)O)NC2=O [Peptide F24A]
fold increase in EC50 on BgNav1 relative to alpha-1 (times lower activity) [1]: 44- to 195 fold
EC50 Nav1.1 [3]: no activity at all
fold increase in EC50 on Nav1.3 relative to alpha-1 [4]: 5- to 20 fold

CC[C@H](C)[C@@H]1NC(=O)[C@@H](NC(=O)CN)CSSC[C@@H]2NC(=O)[C@@H]3CSSC[C@@H](C(=O)N[C@@H](CC(N)=O)C(=O)N4C[C@H](O)C[C@H]4C(=O)N4C[C@H](O)C[C@H]4C(=O)N[C@@H](CC(N)=O)C(=O)N[C@@H](CCC(N)=O)C(=O)O)NC(=O)[C@H](CCCCN)NC(=O)[C@H](Cc4ccccc4)NC(=O)[C@H](CC(N)=O)NC(=O)[C@H](Cc4c[nH]c5ccccc45)NC(=O)CNC(=O)[C@H](CSSC[C@H](NC(=O)[C@H](Cc4ccccc4)NC(=O)[C@H](CO)NC(=O)CNC(=O)[C@H]([C@@H](C)O)NC(=O)[C@H](C)NC1=O)C(=O)N[C@@H]([C@@H](C)O)C(=O)N[C@@H](CC(C)C)C(=O)N[C@@H](CO)C(=O)N[C@@H](CCCCN)C(=O)NCC(=O)N3)NC(=O)[C@H](CC(N)=O)NC(=O)[C@H](C)NC(=O)[C@H]([C@@H](C)O)NC2=O [Peptide K18A]
fold increase in EC50 on Nav1.4 relative to alpha-1 ([5]; negative impact on affinity): 3.8- to 30 fold
fold increase in EC50 on Nav1.3 relative to alpha-1 [4]: 5- to 20 fold

CC[C@H](C)[C@@H]1NC(=O)[C@@H](NC(=O)CN)CSSC[C@@H]2NC(=O)[C@@H]3CSSC[C@@H](C(=O)N[C@@H](C)C(=O)N4C[C@H](O)C[C@H]4C(=O)N4C[C@H](O)C[C@H]4C(=O)N[C@@H](CC(N)=O)C(=O)N[C@@H](CCC(N)=O)C(=O)O)NC(=O)[C@H](CCCCN)NC(=O)[C@H](Cc4ccccc4)NC(=O)[C@H](CC(N)=O)NC(=O)[C@H](Cc4c[nH]c5ccccc45)NC(=O)CNC(=O)[C@H](CSSC[C@H](NC(=O)[C@H](Cc4ccccc4)NC(=O)[C@H](CO)NC(=O)CNC(=O)[C@H]([C@@H](C)O)NC(=O)[C@H](C)NC1=O)C(=O)N[C@@H]([C@@H](C)O)C(=O)N[C@@H](CC(C)C)C(=O)N[C@@H](CO)C(=O)N[C@@H](CCCCN)C(=O)NCC(=O)N3)NC(=O)[C@H](CC(N)=O)NC(=O)[C@H](CCCCN)NC(=O)[C@H]([C@@H](C)O)NC2=O [Peptide N27A]
fold reduction of EC50 on Nav1.4 relative to alpha-1 [5]: 1.6- to 3.2 fold
EC50 Nav1.1 [3]: activity in the same range as alpha-1
EC50 Nav1.7 [6]: lower activity compared to alpha-1

CC[C@H](C)[C@@H]1NC(=O)[C@@H](NC(=O)CN)CSSC[C@@H]2NC(=O)[C@@H]3CSSC[C@@H](C(=O)N[C@@H](CC(N)=O)C(=O)N4C[C@H](O)C[C@H]4C(=O)N4C[C@H](O)C[C@H]4C(=O)N[C@@H](C)C(=O)N[C@@H](CCC(N)=O)C(=O)O)NC(=O)[C@H](CCCCN)NC(=O)[C@H](Cc4ccccc4)NC(=O)[C@H](CC(N)=O)NC(=O)[C@H](Cc4c[nH]c5ccccc45)NC(=O)CNC(=O)[C@H](CSSC[C@H](NC(=O)[C@H](Cc4ccccc4)NC(=O)[C@H](CO)NC(=O)CNC(=O)[C@H]([C@@H](C)O)NC(=O)[C@H](C)NC1=O)C(=O)N[C@@H]([C@@H](C)O)C(=O)N[C@@H](CC(C)C)C(=O)N[C@@H](CO)C(=O)N[C@@H](CCCCN)C(=O)NCC(=O)N3)NC(=O)[C@H](CC(N)=O)NC(=O)[C@H](CCCCN)NC(=O)[C@H]([C@@H](C)O)NC2=O [Peptide N30A]
fold reduction of EC50 on Nav1.4 relative to alpha-1 [5]: 1.6- to 3.2 fold
EC50 Nav1.1 [3]: activity in the same range as alpha-1
fold increase in EC50 on Nav1.3 relative to alpha-1 [4]: 5- to 20 fold
EC50 Nav1.7 [6]: lower activity compared to alpha-1

CC[C@H](C)[C@@H]1NC(=O)[C@@H](NC(=O)CN)CSSC[C@@H]2NC(=O)[C@@H]3CSSC[C@@H](C(=O)N[C@@H](CC(N)=O)C(=O)N4C[C@H](O)C[C@H]4C(=O)N4C[C@H](O)C[C@H]4C(=O)N[C@@H](CC(N)=O)C(=O)N[C@@H](CCC(N)=O)C(=O)O)NC(=O)[C@H](CCCCN)NC(=O)[C@H](Cc4ccccc4)NC(=O)[C@H](CC(N)=O)NC(=O)[C@H](Cc4c[nH]c5ccccc45)NC(=O)CNC(=O)[C@H](CSSC[C@H](NC(=O)[C@H](Cc4ccccc4)NC(=O)[C@H](C)NC(=O)CNC(=O)[C@H]([C@@H](C)O)NC(=O)[C@H](C)NC1=O)C(=O)N[C@@H]([C@@H](C)O)C(=O)N[C@@H](CC(C)C)C(=O)N[C@@H](CO)C(=O)N[C@@H](CCCCN)C(=O)NCC(=O)N3)NC(=O)[C@H](CC(N)=O)NC(=O)[C@H](CCCCN)NC(=O)[C@H]([C@@H](C)O)NC2=O [Peptide S7A]
fold reduction of EC50 on Nav1.4 relative to alpha-1 [5]: 1.6- to 3.2 fold
EC50 Nav1.1 [3]: activity in the same range as alpha-1
fold reduction of EC50 on Nav1.3 relative to alpha-1 [4]: 1.4 fold
EC50 Nav1.7 [6]: lower activity compared to alpha-1

CC[C@H](C)[C@@H]1NC(=O)[C@@H](NC(=O)CN)CSSC[C@@H]2NC(=O)[C@@H]3CSSC[C@@H](C(=O)N[C@@H](CC(N)=O)C(=O)N4C[C@H](O)C[C@H]4C(=O)N4C[C@H](O)C[C@H]4C(=O)N[C@@H](CC(N)=O)C(=O)N[C@@H](CCC(N)=O)C(=O)O)NC(=O)[C@H](CCCCN)NC(=O)[C@H](Cc4ccccc4)NC(=O)[C@H](CC(N)=O)NC(=O)[C@H](Cc4c[nH]c5ccccc45)NC(=O)CNC(=O)[C@H](CSSC[C@H](NC(=O)[C@H](Cc4ccccc4)NC(=O)[C@H](CO)NC(=O)CNC(=O)[C@H](C)NC(=O)[C@H](C)NC1=O)C(=O)N[C@@H]([C@@H](C)O)C(=O)N[C@@H](CC(C)C)C(=O)N[C@@H](CO)C(=O)N[C@@H](CCCCN)C(=O)NCC(=O)N3)NC(=O)[C@H](CC(N)=O)NC(=O)[C@H](CCCCN)NC(=O)[C@H]([C@@H](C)O)NC2=O [Peptide T5A]
fold reduction of EC50 on Nav1.4 relative to alpha-1 [5]: 1.6- to 3.2 fold
EC50 Nav1.1 [3]: activity in the same range as alpha-1
fold reduction of EC50 on Nav1.3 relative to alpha-1 [4]: 1.1 fold
EC50 Nav1.7 [6]: lower activity compared to alpha-1

CC[C@H](C)[C@@H]1NC(=O)[C@@H](NC(=O)CN)CSSC[C@@H]2NC(=O)[C@@H]3CSSC[C@@H](C(=O)N[C@@H](CC(N)=O)C(=O)N4C[C@H](O)C[C@H]4C(=O)N4C[C@H](O)C[C@H]4C(=O)N[C@@H](CC(N)=O)C(=O)N[C@@H](CCC(N)=O)C(=O)O)NC(=O)[C@H](CCCCN)NC(=O)[C@H](Cc4ccccc4)NC(=O)[C@H](CC(N)=O)NC(=O)[C@H](Cc4c[nH]c5ccccc45)NC(=O)CNC(=O)[C@H](CSSC[C@H](NC(=O)[C@H](Cc4ccccc4)NC(=O)[C@H](CO)NC(=O)CNC(=O)[C@H]([C@@H](C)O)NC(=O)[C@H](C)NC1=O)C(=O)N[C@@H](C)C(=O)N[C@@H](CC(C)C)C(=O)N[C@@H](CO)C(=O)N[C@@H](CCCCN)C(=O)NCC(=O)N3)NC(=O)[C@H](CC(N)=O)NC(=O)[C@H](CCCCN)NC(=O)[C@H]([C@@H](C)O)NC2=O [Peptide T10A]
fold reduction of EC50 on Nav1.4 relative to alpha-1 [5]: 1.6- to 3.2 fold
EC50 Nav1.1 [3]: activity in the same range as alpha-1
EC50 Nav1.7 [6]: lower activity compared to alpha-1
